Molecules are shown by their SMILES.

Protein sequences, listed by entry. Tags and fused reporters are not part of them. Residues count along the entry.
UniProt P05067, 672-711: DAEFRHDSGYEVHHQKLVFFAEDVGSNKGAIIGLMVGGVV

The experiment deals with Synthetic beta-amyloid peptide 1-40 (Homo sapiens, UniProt P05067). The experiment can be described thus: Seprion assay screen for compounds that affect amyloid aggregation. Format: biochemical.

On to `OCCN1CCN(CCCN2c3ccccc3Sc3ccc(C(F)(F)F)cc32)CC1` [Fluphenazine, fluphenazine], for which the “Relative aggregation compared to 'no compound' aggregation control” value is 4.37%.

Source of the values: patent US8383617B2, “Treatment of protein aggregation diseases” (priority 2007, dated 2013).
